Measured values from several laboratories, pooled; numbers as filed in NIAID ChemDB.

All rows: growth or infection tests; species: Candida albicans; endpoint: MIC

Lines come from different laboratories, so protocols vary. An empty or dashed field is not shown.

smiles	strain or isolate	method	conditions	result
CC(O)C1NC(=O)C(CCc2ccc(O)cc2)NC(=O)C2C[C@@H](O)CN2C(=O)C(C(C)O)NC(=O)[C@@H](N)CCCNC(=O)C2C[C@H](N)CN2C1=O	ATCC 10231			>100 µg/mL
COc1ccc(C2=CC(c3cc(OC)c(OC)c(OC)c3)N3C(=O)CSC3=N2)cc1OC	DSM 70014			100 µg/mL
CCCCCOc1ccc(-c2ccc(-c3ccc(C(=O)N[C@H]4CCCNC(=O)C5C[C@H](NCCN)CN5C(=O)C(C(C)O)NC(=O)C(CCc5ccc(O)cc5)NC(=O)C5C[C@@H](O)CN5C(=O)C(C(C)O)NC4=O)cc3)cc2)cc1	ATCC 10231			0.39 µg/mL
Brc1cc(Br)c2ncnc(NCCNc3nc(NC4CC4)nc(N4CCN(c5ccccn5)CC4)n3)c2c1	MTCC 183	agar		100 µg/mL
Cn1cc[nH]c1=S				>200 µg/mL
CCCCC(Cn1ccnc1)c1ccc(F)cc1				100 µg/mL
COC(=O)[C@@H]1OC(c2ccccc2O)O[C@H]1C(=O)OC	ATCC 10231	broth dilution		312.5 µg/mL
COc1ccc(NC(=O)CSC2NC(c3ccc(OC)c(OC)c3)=CC(c3cc(OC)c(OC)c(OC)c3)N2)cc1	DSM 70014			100 µg/mL
CCCn1c(-c2ccc(C(N)=NC(C)C)cc2)nc2cc(C(=O)OCC)ccc21	ATCC 10231			50 µg/mL
Cn1ccnc1S(C)(=O)=O				>200 µg/mL
Clc1nc(NC2CC2)nc(N2CCN(Cc3ccccc3)CC2)n1	MTCC 183	agar		50 µg/mL
CC1CCC(C(C)C)C(OC(=O)c2cccc(Cl)c2)C1				10.72 µM
Oc1ccccc1C1O[C@@H](COCc2ccccc2)[C@H](COCc2ccccc2)O1	ATCC 10231	broth dilution		312.5 µg/mL
CCCCCCCCC(Cn1ccnc1)c1ccccc1Cl				10 µg/mL
Cn1cccc1CC(=O)NNC(=O)NCCCCCCNC(=O)NNC(=O)Cc1cccn1C				7.5 µg/mL
Fc1ccc(NCc2nnc3n2N=C(c2cc(F)c(Cl)cc2Cl)/C(=C/c2ccc(Cl)cc2Cl)S3)cc1Cl				12.5 µg/mL
Fc1ccccc1N1CCN(c2nc(NCCNc3ncnc4c(Br)cc(Br)cc34)nc(NC3CC3)n2)CC1	MTCC 183	agar		25 µg/mL
Fc1ccc(-c2nc3cc(NC(=S)Nc4ccccc4)ccc3n2C2CCCC2)cc1				25 µg/mL
COc1cccc(C(=O)OC2CC(C)CCC2C(C)C)c1				10.72 µM
COC(/C=C/c1ccccc1)=C1/C(=O)C=C(C)C1=O	ATCC 90028			0.78 µg/mL
CCOC(=O)c1ccc2nc(-c3ccc(C(N)=NC(C)C)cc3)[nH]c2c1	ATCC 10231			50 µg/mL
COc1cc(C2C=C(c3ccc4c(c3)OCO4)NC(=S)N2)cc(OC)c1OC	DSM 70014			100 µg/mL
CCCCCCCCOc1ccc(N2CCN(c3ccc(C(=O)N[C@H]4CCCNC(=O)C5C[C@H](N)CN5C(=O)C(C(C)O)NC(=O)C(OCc5ccncc5)NC(=O)C5CCCN5C(=O)C(C(C)O)NC4=O)cc3)CC2)cc1	ATCC CCH442			3.12 µg/mL
CCN1CCN(c2nc(NCCNc3ncnc4c(Br)cc(Br)cc34)nc(NC3CC3)n2)CC1	MTCC 183	agar		100 µg/mL
CCN(C)NC(=O)Cc1nc2cc(C(=O)OC)ccc2n1Cc1ccc(Cl)cc1	ATCC 10231			>50 µg/mL
CCCCCCC(Cn1ccnc1)c1ccc(Cl)cc1				100 µg/mL
CC1CCC(C(C)C)C(OC(=O)c2ccccc2Cl)C1				10.72 µM
Fc1ccc(NCc2nnc3n2N=C(c2cc(F)c(Cl)cc2Cl)/C(=C/c2ccc(Cl)cc2)S3)cc1Cl				6 µg/mL
CCCCCOc1ccc(-c2ccc(-c3ccc(C(=O)N[C@H]4CCCNC(=O)C5C[C@H](N)CN5C(=O)C(C)NC(=O)C(CCc5ccc(O)cc5)NC(=O)C5C[C@@H](O)CN5C(=O)C(C(C)O)NC4=O)cc3)cc2)cc1	ATCC CCH442			0.2 µg/mL
CC1CCC(C(C)C)C(OC(=O)c2ccccc2)C1				12.02 µM
COc1cc(/C=C/C(=O)c2ccc3c(c2)OCO3)cc(OC)c1OC	DSM 70014			25 µg/mL
CCCCCOc1ccc(-c2ccc(-c3ccc(C(=O)N[C@H]4CCCNC(=O)C5C[C@H](NC(=O)Nc6ccccc6)CN5C(=O)C(C(C)O)NC(=O)C(CCc5ccc(O)cc5)NC(=O)C5C[C@@H](O)CN5C(=O)C(C(C)O)NC4=O)cc3)cc2)cc1	ATCC CCH442			12.5 µg/mL
CCCCCCCCC(Cn1ccnc1)c1c(Cl)cccc1Cl				>100 µg/mL
Clc1ccc(C(Cn2ccnc2)OCc2csc3c(Cl)cccc23)c(Cl)c1	63 isolates		48 h	4 µg/mL
CC(=O)N1CCN(c2nc(Cl)nc(NC3CC3)n2)CC1	MTCC 183	agar		25 µg/mL
CCCCCCCCCCCCCC[C@@H](N)C(=O)N[C@H](C(=O)O)C1O[C@@H](n2ccc(=O)[nH]c2=O)[C@H](O)[C@@H]1O	H317			>320 µg/mL
Fc1ccc(-c2nc3cc(NC(=S)Nc4ccc(Cl)cc4)ccc3n2C2CCCC2)cc1				50 µg/mL
CCCCCCCCC(Cn1ccnc1)c1ccc(Cl)cc1				10 µg/mL
COc1nnc2c(cnc3ccccc32)n1	VM-81			40 µg/mL
CCCCCCCCC(Cn1ccnc1)c1ccc(Br)cc1				10 µg/mL
Fc1ccc(NCc2nnc3n2N=C(c2cc(F)c(Cl)cc2Cl)/C(=C/c2ccc4c(c2)OCO4)S3)cc1Cl				12.5 µg/mL
FC(F)(F)c1cccc(N2CCN(c3nc(Cl)nc(NC4CC4)n3)CC2)c1	MTCC 183	agar		50 µg/mL
CSc1nccn1C				>200 µg/mL
CCCCC(Cn1ccnc1)c1ccc(Br)cc1				100 µg/mL
CCCCCOc1ccc(-c2ccc(-c3ccc(C(=O)N[C@H]4CCCNC(=O)C5C[C@H](N)CN5C(=O)C(CCCCN)NC(=O)C(CCc5ccc(O)cc5)NC(=O)C5C[C@@H](O)CN5C(=O)C(C(C)O)NC4=O)cc3)cc2)cc1	ATCC 10231			0.2 µg/mL
Nc1nnc2c(cnc3ccccc32)n1	VM-81			40 µg/mL
Fc1cc(C2=Nn3c(CNc4ccc(Cl)cc4)nnc3S/C2=C\c2ccc(Cl)cc2)c(Cl)cc1Cl				6 µg/mL
COc1ccccc1C(=O)OC1CC(C)CCC1C(C)C				10.72 µM
CC(C)OC(=O)C1OC(c2ccccc2O)OC1C(=O)OC(C)C	ATCC 10231	broth dilution		156 µg/mL
Fc1cc(C2=Nn3c(COc4ccc(Cl)cc4)nnc3S/C2=C\c2ccc3c(c2)OCO3)c(Cl)cc1Cl				6 µg/mL
COc1ccc(C2=CC(c3cc(OC)c(OC)c(OC)c3)N=C(SCC(C)=O)N2)cc1OC	DSM 70014			50 µg/mL
Cn1c([N+](=O)[O-])cnc1N				>200 µg/mL
CCC(Cn1ccnc1)c1ccc(Cl)cc1Cl				100 µg/mL
Nc1ccc2c(c1)nc(-c1ccc(F)cc1)n2C1CCCC1				25 µg/mL
Fc1cc(C2=Nn3c(CNc4ccccc4)nnc3S/C2=C\c2ccc3c(c2)OCO3)c(Cl)cc1Cl				12.5 µg/mL
O=c1[nH]nc(-c2ccccc2)n1CCCCCCn1c(-c2ccccc2)n[nH]c1=O	ATCC 90028			1.87 µg/mL
CCCn1c(-c2ccccc2)nc2cc(NC(=S)Nc3ccc(Cl)cc3)ccc21				25 µg/mL
Cc1n[nH]c(=O)n1CCCCCCn1c(C)n[nH]c1=O				7.5 µg/mL
COc1ccc(/C=C2\Sc3nnc(CNc4ccc(Cl)cc4)n3N=C2c2cc(F)c(Cl)cc2Cl)cc1OC				6 µg/mL
CCOC(=O)c1ccc2c(c1)nc(-c1ccc(C(N)=NCc3ccc(Cl)c(Cl)c3)cc1)n2Cc1ccc(Cl)cc1Cl	ATCC 10231			6.25 µg/mL

The first 3 rows once more:

smiles | strain or isolate | method | conditions | result
CC(O)C1NC(=O)C(CCc2ccc(O)cc2)NC(=O)C2C[C@@H](O)CN2C(=O)C(C(C)O)NC(=O)[C@@H](N)CCCNC(=O)C2C[C@H](N)CN2C1=O | ATCC 10231 |  |  | >100 µg/mL
COc1ccc(C2=CC(c3cc(OC)c(OC)c(OC)c3)N3C(=O)CSC3=N2)cc1OC | DSM 70014 |  |  | 100 µg/mL
CCCCCOc1ccc(-c2ccc(-c3ccc(C(=O)N[C@H]4CCCNC(=O)C5C[C@H](NCCN)CN5C(=O)C(C(C)O)NC(=O)C(CCc5ccc(O)cc5)NC(=O)C5C[C@@H](O)CN5C(=O)C(C(C)O)NC4=O)cc3)cc2)cc1 | ATCC 10231 |  |  | 0.39 µg/mL